Pooled drug test results. Numbers come from NIAID ChemDB, via PubChem.

Shared fields: tests in culture; organism: Candida parapsilosis; measure: MIC

Neighbouring rows are from separate reports. Blank or dashed fields: not listed here. Two numbers with a dash give a range or band.

smiles,strain or isolate,method,value
CCN1C(=O)CS/C1=N/NC(=O)c1cn2ccccc2n1,ATCC 22019,broth dilution,64 µg/mL
CC1=C2C3=C4[C@@](C)(C(=O)[C@]2(O)OC1=O)[C@@H]1C[C@@H]1[C@@]4(O)C[C@@H]1[C@]32OC(=O)C3=C2C[C@H]2[C@](O)(COC(=O)/C(C)=C/COC(=O)CCC(=O)OC3)[C@H]3C[C@H]3[C@]12C,ATCC 22019,broth dilution,>256 µg/mL
CC(C)(O)c1cn(-c2ccc(Cl)cc2)nn1,URM 4608,broth dilution,128 µg/mL
CN(Cc1ccc(S(=O)(=O)N2CCOCC2)cc1)CC(O)(Cn1cncn1)c1ccc(F)cc1F,CAPA1,resazurin,0.88 µg/mL
C[C@@H]([C@H](N)C(=O)N[C@H](C(=O)O)[C@H]1O[C@@H](n2ccc(=O)[nH]c2=O)[C@H](O)[C@@H]1O)[C@H](O)c1ccc(O)cn1,-,visual reading,>500 µg/mL
Cc1nn2c(-c3ccncc3)nnc2s/c1=N/Nc1ccc(F)cc1,ATCC 22019,broth dilution,6.25 µg/mL
OC(Cn1cncn1)(Cn1cncn1)c1ccc(F)cc1F,ATCC 22019,broth dilution,0.2 µg/mL
OC(Cn1cncn1)(Cn1cncn1)c1ccc(F)cc1F,-,agar,6.2–25 µg/mL
CC(C)c1ccc(NS(=O)(=O)c2ccc(CN(C)CC(O)(Cn3cncn3)c3ccc(F)cc3F)cc2)cc1,CAPA2,resazurin,0.62 µg/mL
Clc1ccc(Nc2nnc(-c3cn4ccccc4n3)o2)cc1,ATCC 22019,broth dilution,32 µg/mL
COC(=O)/C(C)=C1\C(=O)[C@H](O)[C@]2(C)C3=C(C[C@@H]4[C@]5(OC(=O)C6=C5C[C@H]5[C@](O)(COC(=O)/C(C)=C/COC(=O)CCC(=O)OC6)[C@H]6C[C@H]6[C@]45C)[C@H]31)[C@H]1C[C@H]12,ATCC 22019,broth dilution,64 µg/mL
c1ccc(Nc2nnc(-c3cn4ccccc4n3)o2)cc1,ATCC 22019,broth dilution,32 µg/mL
CCC(C)n1ncn(-c2ccc(N3CCN(c4ccc(OC[C@H]5CO[C@](Cn6cncn6)(c6ccc(Cl)cc6Cl)O5)cc4)CC3)cc2)c1=O,ATCC 22019,broth dilution,1 µg/mL
CCC(C)CC(C)CCCCCCCCC(=O)N[C@H]1C[C@@H](O)[C@H](NCCN)NC(=O)[C@@H]2[C@@H](O)CCN2C(=O)[C@H]([C@H](O)CCN)NC(=O)[C@H]([C@H](O)[C@@H](O)c2ccc(O)cc2)NC(=O)[C@@H]2C[C@@H](O)CN2C(=O)[C@H]([C@@H](C)O)NC1=O,C231,broth dilution,0.125 µg/mL
Cc1ccccc1N/N=c1/sc2nnc(-c3ccncc3)n2nc1C,ATCC 22019,broth dilution,>100 µg/mL
Cc1ccc(N2C(=O)CS/C2=N/NC(=O)c2cn3ccccc3n2)cc1,ATCC 22019,broth dilution,32 µg/mL
CC(=O)N1CCN(c2ccc(OC[C@H]3CO[C@](Cn4ccnc4)(c4ccc(Cl)cc4Cl)O3)cc2)CC1,ATCC 22019,broth dilution,3 µg/mL
COC(=O)c1c(C)oc2cc(C(=O)C(Br)Br)c(O)c(Br)c12,ATCC 22019,-,100 µg/mL
C[C@H]1[C@H](O)[C@@H](C)/C=C/C=C/C=C/C=C/C=C/C=C/C=C/[C@H](O[C@@H]2O[C@H](C)[C@@H](O)[C@H](N)[C@@H]2O)C[C@@H]2O[C@](O)(C[C@@H](O)C[C@@H](O)CC[C@H](O)[C@@H](O)C[C@@H](O)CC(=O)O[C@H]1C)C[C@H](O)[C@H]2C(=O)O,22019,broth dilution,0.125 µg/mL
Nc1scc2c1c(=O)oc1ccccc12,ATCC 22019,broth dilution,8 µg/mL
C[C@H]1[C@H](O)[C@@H](C)/C=C/C=C/C=C/C=C/C=C/C=C/C=C/[C@H](O[C@@H]2O[C@H](C)[C@@H](O)[C@H](N)[C@@H]2O)C[C@@H]2O[C@](O)(C[C@@H](O)C[C@@H](O)CC[C@H](O)[C@@H](O)C[C@@H](O)CC(=O)O[C@H]1C)C[C@H](O)[C@H]2C(=O)O,ATCC 22019,-,1.4 µg/mL
C[C@H]1[C@H](O)[C@@H](C)/C=C/C=C/C=C/C=C/C=C/C=C/C=C/[C@H](O[C@@H]2O[C@H](C)[C@@H](O)[C@H](N)[C@@H]2O)C[C@@H]2O[C@](O)(C[C@@H](O)C[C@@H](O)CC[C@H](O)[C@@H](O)C[C@@H](O)CC(=O)O[C@H]1C)C[C@H](O)[C@H]2C(=O)O,22019,broth dilution,0.5 µg/mL
CN(Cc1ccc(NS(=O)(=O)c2ccc([N+](=O)[O-])cc2)cc1)CC(O)(Cn1cncn1)c1ccc(F)cc1F,CAPA2,resazurin,1.7 µg/mL
CO[C@@]12OC(=O)C(C)=C1C1=C3[C@](C)([C@@H]4C[C@@H]4[C@@]3(O)C[C@@H]3[C@]14OC(=O)C1=C4C[C@H]4[C@](O)(COC(=O)/C(C)=C/COC(=O)CCC(=O)OC1)[C@H]1C[C@H]1[C@]34C)[C@H]2O,ATCC 22019,broth dilution,>256 µg/mL
CCCNC(=S)NNC(=O)c1cn2ccccc2n1,ATCC 22019,broth dilution,64 µg/mL
CC(C)c1ccc(S(=O)(=O)Nc2ccc(CN(C)CC(O)(Cn3cncn3)c3ccc(F)cc3F)cc2)cc1,CAPA1,resazurin,0.15 µg/mL
C[C@@H](N1CCc2nc(-c3ccsc3)sc2C1)[C@](O)(C[n+]1cnc[nH]1)c1ccc(F)cc1F,22019,-,1 µg/mL

Again, the opening 2 rows:

| smiles | strain or isolate | method | value |
|---|---|---|---|
| CCN1C(=O)CS/C1=N/NC(=O)c1cn2ccccc2n1 | ATCC 22019 | broth dilution | 64 µg/mL |
| CC1=C2C3=C4[C@@](C)(C(=O)[C@]2(O)OC1=O)[C@@H]1C[C@@H]1[C@@]4(O)C[C@@H]1[C@]32OC(=O)C3=C2C[C@H]2[C@](O)(COC(=O)/C(C)=C/COC(=O)CCC(=O)OC3)[C@H]3C[C@H]3[C@]12C | ATCC 22019 | broth dilution | >256 µg/mL |